Reference: patent US20150044236A1

Molecular target: human Kv1.3 voltage-gated potassium channel (human) (UniProt P22001)
Test: cell-based or functional assay

## 20 kDa-PEG-[Lys16]ShK-Ala (peptide)
  Potency Relative to ShK (WB, IL2): 11.2 fold

## Bivalent Fc-ShK(1-35 Q16K) homodimer (IgG2) (Fc fusion)
  Potency Relative to ShK (WB, IL2): 27.6 fold
  WB (IFNg) IC50: 3.14 nM
  WB (IL-2) IC50: 1.85 nM
